Source: ChEMBL document CHEMBL3988442, “University of Dundee, Small-Polar-MMV Screening Library” (2021).

A: 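Growth of Mycobacterium tuberculosis over 4 days (cholesterol / DPPC medium with tyloxapol); the read-out is not stated. Compounds at 500 µM. Direction is inferred from retests: higher values go with more growth inhibition. Size under these conditions: about 18,000 compounds, about 900 of them at 50% or above in at least one test.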
B: 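Whole-cell growth test on Mycobacterium tuberculosis, read after 3 days in glucose-containing 7H9 medium; the read-out is not stated. Compounds at 500 µM. Direction is inferred from retests: higher values go with more growth inhibition. Size under these conditions: about 18,000 compounds, about 1,400 of them at 50% or above in at least one test.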

Values are the deposited “Percent Effect”, in %.
How 0% and 100% were set is not recorded. Most values in the screen are low, and negative values occur.
The entries come from a sample that favours strong results.
A dash means the value is not listed here; it may have been measured.

{"compound": "CN(C)S(=O)(=O)Nc1cccc(C2SCCS2)c1", "B": 12.25}
{"compound": "COc1ccc(C(=O)Nc2cnn(C)c2)cc1", "A": -0.3016, "B": 21.23}
{"compound": "CC1CCCN(CC(=O)Nc2ccc3c(c2)OCO3)C1", "stereo": "stereo not given", "A": -24.97, "B": 6.916}
{"compound": "CCC(NC(=O)Cn1nc(C)c(Cl)c1C)[C@H]1C[C@H](O)C1", "stereo": "stereo not given in full", "A": 6.689}
{"compound": "CC(C)(CC(N)=O)NCc1ccc(F)c(C#N)c1", "B": 7.046}
{"compound": "CC(C)(C)NCC(=O)Nc1ccc(Cl)cn1", "B": 27.28}
{"compound": "COC(=O)CC1CNc2ccccc21", "stereo": "stereo not given", "A": 11.26}
{"compound": "CN(CC(=O)N1CCC2(CCCCC2)CC1)S(C)(=O)=O", "A": -4.154}
{"compound": "CN1CC(NCc2ccc(C#N)cc2)CC1=O", "stereo": "stereo not given", "A": 1.771}
{"compound": "Cc1cc(C)c2c(N[C@@H]3CC[C@@H](N)C3)ncnc2n1", "A": -12.56}
{"compound": "CNCc1nnc(C)o1", "A": -6.661}
{"compound": "COCc1nc(CN2CCCC2c2nccs2)no1", "stereo": "stereo not given", "B": 4.37}
{"compound": "NS(=O)(=O)C1CCN(Cc2ccc(Br)c(F)c2)C1", "stereo": "stereo not given", "A": 44.21, "B": 58.15}
{"compound": "O=C(CN1CCOCC1)c1nccs1", "B": -31.7}
{"compound": "Cc1ccc(F)cc1S(=O)(=O)N1C[C@H](C2CC2)[C@@H](N)C1", "B": 57.87}
{"compound": "CN(Cc1cc(C2CC2)[nH]n1)C(=O)Cc1cccnc1", "B": -4.867}
{"compound": "COc1ccc2c(c1)OCCN(C(=O)C(C)OC)C2", "stereo": "stereo not given", "A": 6.635}
{"compound": "CC(NC(=O)NC1CCN(C)CC1)c1ccncc1F", "stereo": "stereo not given", "B": 1.884}
{"compound": "Clc1cnc(NCCNCc2cc[nH]n2)c(Cl)c1", "A": 53.71, "B": 65.78}
{"compound": "CC(NC(=O)CCc1ccc(O)cc1)c1cnn(C)c1", "stereo": "stereo not given", "A": 0.1406}
{"compound": "CC1CN(CCC(=O)NC(N)=O)CCO1", "stereo": "stereo not given", "A": 108.6, "B": 97.81}
{"compound": "NCC(=O)N(Cc1cccs1)Cc1cccs1", "A": 73.12, "B": 74.2}
{"compound": "CN(C)c1cc(CNC(=O)CC2C=CCC2)ccn1", "stereo": "stereo not given", "A": 5.573}
{"compound": "O=c1c2ccccc2ncn1CCN1CCOCC1", "B": 7.31}
{"compound": "CCN(CCC#N)C(=O)CSc1ccoc1C", "B": 13.16}
{"compound": "CCNC(=O)CNc1nnnn1-c1ccc(C)cc1", "B": -0.248}
{"compound": "NCCCc1ccccn1", "B": 54.67}
{"compound": "NC[C@@H]1OC[C@@H]2COCC[C@@H]21", "A": -19.91}
{"compound": "CCC(C)(CCO)NC(=O)c1ccncc1Cl", "stereo": "stereo not given", "A": -9.74}
{"compound": "CC(CN)S(N)(=O)=O", "stereo": "stereo not given", "B": 3.418}
{"compound": "Cn1ncc(C#N)c1N", "B": 12.72}
{"compound": "CCn1ncnc1C(NC(=O)CSC)C1CC1", "stereo": "stereo not given", "B": -0.6479}
{"compound": "NCC(O)c1ccncc1", "stereo": "stereo not given", "A": 5.59, "B": 7.48}
{"compound": "CCC1CN(C)c2ccccc2CN1CCC(=O)NC", "stereo": "stereo not given", "B": 82.9}
{"compound": "CC[C@H](N)C(=O)N(Cc1cccc(F)c1)C1CC1", "A": 17.44}
{"compound": "C=C(Br)CNC(=O)Cc1c(F)cccc1F", "A": 6.573}
{"compound": "CC(N)c1cc[nH]c(=O)c1", "stereo": "stereo not given", "A": -10.07}
{"compound": "CCOc1ccc(CNS(=O)(=O)N(C)C)cc1C", "A": 54.97, "B": 62.75}
{"compound": "NC(=O)C1CCN(C2=NS(=O)(=O)c3ccccc32)CC1", "B": 5.775}
{"compound": "CCC1CN(S(=O)(=O)N2CCCCC2)CCO1", "stereo": "stereo not given", "B": 40.83}
{"compound": "NS(=O)(=O)c1ncc[nH]1", "A": -7.086}
{"compound": "CC1(C)CC(C(=O)NCCNc2cccnc2)CCO1", "stereo": "stereo not given", "A": 6.412}
{"compound": "COc1cc(Cl)c(CN)cc1OC", "B": 43.4}
{"compound": "Cc1cc(F)cc(S(=O)(=O)NCCN)c1", "B": 22.94}
{"compound": "Cc1nnc2ccc(C(=O)NCCN3CCCC3)cn12", "B": -33.09}
{"compound": "OCc1cc(CNc2ncccn2)ccc1F", "B": 13.25}
{"compound": "NC1CCN(C(=O)c2cccnc2)C1", "stereo": "stereo not given", "B": 6.813}
{"compound": "OC1CCNCc2ccccc21", "stereo": "stereo not given", "B": 35.84}

Some entries from above, unchanged:

Compound,A,B
O=C(CN1CCOCC1)c1nccs1,-,-31.7%
CC(C)(CC(N)=O)NCc1ccc(F)c(C#N)c1,-,7.046%
CCn1ncnc1C(NC(=O)CSC)C1CC1 (stereo not given),-,-0.6479%
NC(=O)C1CCN(C2=NS(=O)(=O)c3ccccc32)CC1,-,5.775%
Cc1cc(F)cc(S(=O)(=O)NCCN)c1,-,22.94%